## Potato spindle tuber viroid, loop 1: variant abundance in plants

PSTVd intermediate strain, loop 1: wild type CCUCGG, pool pattern CNNNNG; 5' to 3', with the closing base pair.

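A pool of all variants was put on leaves of three Nicotiana benthamiana plants. Samples came from the inoculated region at 5 days, the leaf margin at 10 and upper systemic leaves at 12.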

Values are reads per thousand in the sample; higher means more abundant, 0 means not found. Each value is the mean of three plants. "Pool" is the share in the plasmid pool used as inoculum, on the same scale. The inoculated region was read from the minus strand, the other sites from the plus strand. Samples held 32,791 to 60,834 reads, so the smallest values rest on one or two reads. The authors trace changes outside the varied positions to PCR and sequencing errors or to mutation in the plant; presence does not show that a variant is infectious alone. For reference, wild type rose from 20.1 per thousand in the pool to 197, 219, 222 (inoculated region), 828, 823, 779 (leaf margin) and 914, 907, 857 (systemic leaves).

CCUACG (pool 3.68) read inoculated region 2.79; leaf margin 0.0141; systemic leaves 0. For CCUCGG (pool 20.1) the result was inoculated region 212; leaf margin 810; systemic leaves 893. With CCAUCG (pool 3.27) the assay gave inoculated region 2.61; leaf margin 0.00663; systemic leaves 0. CCCCGG (pool 3.60) read inoculated region 3.00; leaf margin 0.129; systemic leaves 2.41. For CCCGCG (pool 3.73) the result was inoculated region 2.97; leaf margin 0.0141; systemic leaves 0.00548. CGCGGG (pool 3.86) gave inoculated region 8.42; leaf margin 0.0238; systemic leaves 0. For CAUCUG (pool 3.69) the result was inoculated region 2.88; leaf margin 0.0102; systemic leaves 0.00677. For CAGCAG (pool 3.06) the result was inoculated region 2.77; leaf margin 1.28; systemic leaves 0.438.

CCUUCG (pool 3.57) read inoculated region 2.76; leaf margin 0; systemic leaves 0.00599. For CCCAGG (pool 3.36) the result was inoculated region 2.69; leaf margin 0; systemic leaves 0. CGUCGG (pool 4.43) read inoculated region 18.7; leaf margin 13.2; systemic leaves 16.3. CGGAGG (pool 3.51) read inoculated region 2.63; leaf margin 0.00704; systemic leaves 0. CAAUCG (pool 3.26) gave inoculated region 2.83; leaf margin 0; systemic leaves 0. With CAGAGG (pool 3.07) the assay gave inoculated region 2.78; leaf margin 0; systemic leaves 0.00677. CGCAUG (pool 4.51) gave inoculated region 2.75; leaf margin 0.00704; systemic leaves 0.0169. CAUCAG (pool 4.24) gave inoculated region 2.95; leaf margin 0.00704; systemic leaves 0.0164.

For CGGCAG (pool 3.84) the result was inoculated region 2.78; leaf margin 0.0203; systemic leaves 0. CCAGAG (pool 3.42) read inoculated region 2.72; leaf margin 0; systemic leaves 0. With CAAGGG (pool 3.57) the assay gave inoculated region 2.57; leaf margin 0; systemic leaves 0. For CCUCGC (pool 0.0131) the result was inoculated region 0.0542; leaf margin 0.175; systemic leaves 0.0467. CUACAG (pool 4.06) gave inoculated region 2.99; leaf margin 0.0168; systemic leaves 0.0164. CCGUGA (pool 0.460) read inoculated region 0.0916; leaf margin 0; systemic leaves 0. CCGCGG (pool 4.02) read inoculated region 3.17; leaf margin 0.288; systemic leaves 4.06. With CCACCU (pool 0.0131) the assay gave inoculated region 0; leaf margin 1.41; systemic leaves 0.395.

CUUCAG (pool 3.71) gave inoculated region 2.98; leaf margin 0; systemic leaves 0. With CAACUU (pool 0.0131) the assay gave inoculated region 0; leaf margin 0; systemic leaves 0. With CAUGAG (pool 3.55) the assay gave inoculated region 2.76; leaf margin 0; systemic leaves 0. CCUCAA (pool 0.0131) read inoculated region 0; leaf margin 0.0141; systemic leaves 0. CACUGA (pool 0.0131) read inoculated region 0; leaf margin 1.22; systemic leaves 0.460. CACUCG (pool 3.65) read inoculated region 2.76; leaf margin 1.26; systemic leaves 0.389. CGUGGG (pool 3.93) read inoculated region 2.73; leaf margin 0.0172; systemic leaves 0.0164. For CAUCCG (pool 3.35) the result was inoculated region 2.55; leaf margin 0; systemic leaves 0.00677.

For CGUGCG (pool 4.07) the result was inoculated region 2.66; leaf margin 0; systemic leaves 0.0110. CGAUUG (pool 3.92) read inoculated region 2.95; leaf margin 0; systemic leaves 0.0110. With CCCAUG (pool 3.56) the assay gave inoculated region 2.95; leaf margin 0; systemic leaves 0. CACCUG (pool 4.45) read inoculated region 2.96; leaf margin 0; systemic leaves 0.00548. With CUUCUG (pool 3.39) the assay gave inoculated region 2.70; leaf margin 0; systemic leaves 0. With CGUUCG (pool 4.15) the assay gave inoculated region 2.83; leaf margin 0.0102; systemic leaves 0.

Excerpt, the final 5 entries:

- CGAUUG (pool 3.92): inoculated region 2.95; leaf margin 0; systemic leaves 0.0110
- CCCAUG (pool 3.56): inoculated region 2.95; leaf margin 0; systemic leaves 0
- CACCUG (pool 4.45): inoculated region 2.96; leaf margin 0; systemic leaves 0.00548
- CUUCUG (pool 3.39): inoculated region 2.70; leaf margin 0; systemic leaves 0
- CGUUCG (pool 4.15): inoculated region 2.83; leaf margin 0.0102; systemic leaves 0

Reference: Wu et al. 2024, doi:10.1371/journal.ppat.1012142.